Results deposited as PubChem BioAssay AID1259414 (Drosophila RNAi Screening Center, 2018)
In all, the deposit lists about 24,000 reagents; shown is an unselected part of those that have a named target and a result. Of all reagents, about 1,210 (5%) are marked active. 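Inactive calls also include excluded dsRNAs with several or no targets, genes unexpressed in JW18, and well A1, regardless of score.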

Purpose: 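Genome-wide screen for host control of endosymbiont load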 (primary screen)
System: Drosophila JW18 cells infected with Wolbachia
Knock-down reagent: long dsRNA against Drosophila genes, 0.25 µg dsRNA per well of a 384-well plate
Time to read-out: 5 days
Challenge: cells persistently infected with Wolbachia before knock-down; no added drug
Measurement: 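Automated imaging of bacterial rRNA staining divided by host cell count, reported as plate-normalised robust z-score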
Direction: Wolbachia per cell robust z: higher = more Wolbachia per host cell than the plate typical
Call rule: 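Active if absolute robust z reaches 1.5 in two or more of three replicates, leaving out multi- or no-target dsRNAs, genes unexpressed in JW18 and A1 wells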

For CG43896 [DRSC10288], what does the deposit list?
Wolbachia per cell robust z, rep 1: 0.42; Wolbachia per cell robust z, rep 2: 0.184; Wolbachia per cell robust z, rep 3: 0.163; outcome: inactive

For CG43896 [DRSC10754], how do the results read?
Wolbachia per cell robust z, rep 1: 0.772; Wolbachia per cell robust z, rep 2: 1.06; Wolbachia per cell robust z, rep 3: 0.0184; outcome: inactive

Which result is listed for CG43896 [DRSC26965]?
Wolbachia per cell robust z, rep 1: 0.28; Wolbachia per cell robust z, rep 2: 1.41; Wolbachia per cell robust z, rep 3: 0.215; outcome: inactive

With CG17715 [DRSC11950], how do the results read?
Wolbachia per cell robust z, rep 1: -0.27; Wolbachia per cell robust z, rep 2: 0.819; Wolbachia per cell robust z, rep 3: 0.616; outcome: inactive

How did the screen score Megf8 [DRSC03058]?
Wolbachia per cell robust z, rep 1: -0.436; Wolbachia per cell robust z, rep 2: -0.301; Wolbachia per cell robust z, rep 3: -1.53; outcome: inactive

What did the screen give for CG4972 [DRSC02798]?
Wolbachia per cell robust z, rep 1: 0.221; Wolbachia per cell robust z, rep 2: 0.553; Wolbachia per cell robust z, rep 3: -0.00552; outcome: inactive

With CG34194 [DRSC05666], what does the deposit list?
Wolbachia per cell robust z, rep 1: -1.16; Wolbachia per cell robust z, rep 2: -0.261; Wolbachia per cell robust z, rep 3: 0.969; outcome: inactive

For CG34194 [DRSC41336], what was measured?
Wolbachia per cell robust z, rep 1: 0.582; Wolbachia per cell robust z, rep 2: 0.781; Wolbachia per cell robust z, rep 3: 0.861; outcome: inactive

For CG15544 [DRSC15082], what was measured?
Wolbachia per cell robust z, rep 1: 0.317; Wolbachia per cell robust z, rep 2: -0.421; Wolbachia per cell robust z, rep 3: -0.111; outcome: inactive

With CG15544 [DRSC25686], what was measured?
Wolbachia per cell robust z, rep 1: 0.582; Wolbachia per cell robust z, rep 2: 0.322; Wolbachia per cell robust z, rep 3: -10.6; outcome: inactive

How did the screen score Traf-like [DRSC19894]?
Wolbachia per cell robust z, rep 1: -0.0278; Wolbachia per cell robust z, rep 2: -0.885; Wolbachia per cell robust z, rep 3: -0.777; outcome: inactive

With CG5815 [DRSC14135], what was measured?
Wolbachia per cell robust z, rep 1: -2.05; Wolbachia per cell robust z, rep 2: -0.796; Wolbachia per cell robust z, rep 3: 0.373; outcome: inactive

For CG5815 [DRSC27943], what was measured?
Wolbachia per cell robust z, rep 1: -4.32; Wolbachia per cell robust z, rep 2: 0.0722; Wolbachia per cell robust z, rep 3: -0.52; outcome: inactive

Not a retest: entries from further up.
CG43896 [DRSC10754] → Wolbachia per cell robust z, rep 1 = 0.772; Wolbachia per cell robust z, rep 2 = 1.06; Wolbachia per cell robust z, rep 3 = 0.0184; outcome = inactive
CG43896 [DRSC26965] → Wolbachia per cell robust z, rep 1 = 0.28; Wolbachia per cell robust z, rep 2 = 1.41; Wolbachia per cell robust z, rep 3 = 0.215; outcome = inactive
